Measured values from several laboratories, pooled; numbers as filed in NIAID ChemDB.

Common to all: growth or infection tests; agent: Mycobacterium avium

Lines come from different laboratories, so protocols vary. Blank or dashed fields: not listed here. MIC50, MIC90 and the like: level of inhibition, or share of isolates inhibited.

smiles | strain or isolate | endpoint | value
Cc1ccc(/C=N/N=C(/N)c2ccccn2)cc1 |  | MIC | 32 µg/mL
Cc1ccc(CSc2nnn(-c3ccccc3)n2)cc1 | CNCTC MY330/88 | MIC | 62.5 µM
C=C1C(=O)O[C@H]2[C@H]1CC/C(C)=C/CC[C@@]1(C)O[C@@H]21 |  | MIC | 64 µg/mL
Oc1cc(Br)ccc1C(=S)NCc1ccc(Cl)c(Cl)c1 | MY330/88 | MIC | 16 µg/mL
CCCCCCCCCCC[N+]1(CCOC(=O)Nc2ccccc2OCCCCCC)CCCCC1 | MY330/88 | MIC | 32 µM
C(/C=C/c1ccccc1)=Nc1cccc(Cn2ccnc2)c1 | 103317 | MIC | 8 µg/mL
COc1ccc(CSc2nnn(-c3ccc(Br)cc3)n2)cc1 | CNCTC MY330/88 | MIC | 125 µM
CCCCCCOc1ccccc1NC(=O)OCC[N+]1(CCCCCC)CCCCC1 | MY330/88 | MIC | 32 µM
CCn1c(S)c(N=NC(N)=[NH2+])c2ccccc21 | CNCTC MY66/72 | MIC | 125 µM
O=C(NNC1=NS(=O)(=O)c2ccccc2N1c1ccccc1)c1ccncc1 | ATCC49601 | MIC | >16 µg/mL
CC(C)c1c(O)cc([C@H](N=C(N)N)C(=O)NCC(=O)O)cc1O | Strain #2 | MIC | 0.39 µg/mL
CCCCCCOc1ccccc1NC(=O)OCC[N+]1(C)CCCCC1 | MY330/88 | MIC | 250 µM
O=Cc1coc2ccc(Br)cc2c1=O | MY330/88 | MIC | >1000 µM
CCCCCN1C(=S)C(=O)c2ccccc21 | CNCTC MY80/72 | MIC | 63 µM
CC(C)(C)c1ccc(NC(=O)c2cc(Cl)ccc2O)cc1 | MY330/88 | MIC | 32 µM
CN1C(NNC(=O)c2ccncc2)=NS(=O)(=O)c2ccccc21 | ATCC49601 | MIC | >16 µg/mL
COc1cccc(/C=N/N=C(\N)c2ccncc2)c1OC | INH resistant | MIC | 256 µg/mL
C=C1CC[C@@H](O)[C@]2(C)CC[C@@H](C(C)CO)[C@H](O)[C@@H]12 |  | MIC | >128 µg/mL
CCCCCOc1ccccc1NC(=O)OCC[N+]1(Cc2ccccc2)CCCCC1 | MY330/88 | MIC | 125 µM
c1ccc(-c2ccc(CNc3ccc(N4CCOCC4)cc3)cc2)cc1 | 103317 | MIC | 8 µg/mL
COc1cc(/C=N/N=C(\N)c2ccncc2)cc(OC)c1OC | INH resistant | MIC | 256 µg/mL
Oc1ccccc1C(=S)NCc1cccc(C(F)(F)F)c1 | MY330/88 | MIC | 0.5 µg/mL
COc1ccc(CSc2nnn(-c3ccc(C)cc3)n2)cc1 | CNCTC MY330/88 | MIC | 32 µM
CCCCCCCCCCCCSc1ccnc(C(N)=S)c1 | 80/72 | MIC | 500 µM
CCN1C(NNC(=O)c2ccncc2)=NS(=O)(=O)c2ccccc21 | ATCC49601 | MIC | 16 µg/mL
O=Cc1coc2ccccc2c1=O | MY330/88 | MIC | >1000 µM
N/C(=N\N=C\c1ccccc1Cl)c1ccncc1 | INH resistant | MIC | 16 µg/mL
O=C(Nc1ccc(C(F)(F)F)cc1)c1ccccc1O | CNCTC MY330/88 | MIC | 32 µM
Cc1cccc(CNC(=S)c2ccccc2O)c1 | MY330/88 | MIC | 0.5 µg/mL
Oc1ccc(Cl)cc1C(=S)Nc1cccc(F)c1 | MY330/88 | MIC | 31 µM
CCCCCCCC[N+]1(CCOC(=O)Nc2ccccc2OCCCCCC)CCCCC1 | MY330/88 | MIC | 16 µM
CN1CCN(Cc2ccccc2N=C/C=C/c2ccccc2)CC1 | 103317 | MIC | 32 µg/mL
O=C(NCc1ccc(Br)cc1)c1ncccc1O | CNCTC MY330/88 | MIC | 32 µM
CC1=CC[C@@H](O)[C@]2(C)CC[C@@H]3[C@H](OC(=O)[C@H]3C)[C@@H]12 |  | MIC | >128 µg/mL
CN1C(NNC(=O)c2ccc(Cl)nc2)=NS(=O)(=O)c2ccccc21 | ATCC49601 | MIC | >16 µg/mL
COc1cccc(/C=N/N=C(\N)c2ccccn2)c1OC |  | MIC | 256 µg/mL
Oc1ccccc1C(=S)NCc1ccc(Cl)cc1 | MY330/88 | MIC | 0.5 µg/mL
CCCCc1ccc(NC(=S)c2cc(Cl)ccc2O)cc1 | MY330/88 | MIC | 16 µM
CCOc1ccc(NC(=O)OCCN2CCOCC2)cc1 | MY330/88 | MIC | 1000 µM
CCCCCCCCc1ccc(NC(=O)c2cc(Cl)ccc2O)cc1 | MY330/88 | MIC | 8 µM
COc1cc(/C=N/N=C(\N)c2ccccn2)cc(OC)c1 |  | MIC | 256 µg/mL
CCOC(=O)C(=O)N=Nc1c(S)n(CC)c2ccccc12 | CNCTC D5/93 | MIC | >1000 µM
Oc1ccccc1C(=S)NCc1ccc(Cl)c(Cl)c1 | MY330/88 | MIC | 0.98 µg/mL
O=Cc1coc2ccc(F)cc2c1=O | MY330/88 | MIC | 500 µM
O=C(NCc1cccc(Br)c1)c1ccc(Br)cc1O | MY330/88 | MIC | 32 µg/mL
N/C(=N\N=C\c1ccc([N+](=O)[O-])cc1)c1ccccn1 |  | MIC | 256 µg/mL
CCCCc1ccc(NC(=O)c2cc(Br)ccc2O)cc1 | MY330/88 | MIC | 8 µM
CCCCSc1ccnc(C(N)=S)c1 | 80/72 | MIC | 250 µM
C=C1C(=O)O[C@H]2[C@H]1CC/C(C)=C/CC[C@@]1(C)O[C@@H]21 |  | MIC | 64 µg/mL
Oc1ccc(Cl)cc1C(=S)Nc1ccc(F)cc1 | MY330/88 | MIC | 31 µM
CCCCCCOc1cccc(NC(=O)OCCN2CCCCCC2)c1 | MY330/88 | MIC | 16 µM
CC(C)c1c(O)cc(C(N=C(N)N)C(=O)NCC(=O)O)cc1O | Strain #2 | MIC | 3.13 µg/mL
Oc1ccc(Cl)cc1C(=S)Nc1ccc(Cl)cc1 | MY330/88 | MIC | 31 µM
O=C(Nc1ccc(Cl)c(Cl)c1)c1ccccc1O | CNCTC MY330/88 | MIC | 31 µM
CN1C(NC(=O)c2ccc(Cl)nc2)=NS(=O)(=O)c2cc(Cl)ccc21 | ATCC49601 | MIC | >16 µg/mL
C=C1C(=O)O[C@@H]2/C=C(\C)CC/C=C(\C)CC[C@@H]12 |  | MIC | 128 µg/mL
C(/C=C/c1ccccc1)=Nc1ccccc1Cn1ccnc1 | 103317 | MIC | 16 µg/mL
COc1ccc(CSc2nnn(-c3ccc(OC)cc3)n2)cc1 | CNCTC MY330/88 | MIC | 125 µM
CN1CCN(Cc2ccccc2NC/C=C/c2ccccc2)CC1 | 103317 | MIC | 16 µg/mL
CC(C)N1C(NNC(=O)c2cnccn2)=NS(=O)(=O)c2ccccc21 | ATCC49601 | MIC | >16 µg/mL
CCCCc1ccc(NC(=O)c2cc(Br)cc(Br)c2O)cc1 | MY330/88 | MIC | 62.5 µM
CCN1C(NNC(=O)c2cnccn2)=NS(=O)(=O)c2ccccc21 | ATCC49601 | MIC | >16 µg/mL
O=C(NCc1cccc(C(F)(F)F)c1)c1ccccc1O | MY330/88 | MIC | 16 µg/mL
Clc1ccc(CNc2cccc(N3CCSCC3)c2)cc1 | 103317 | MIC | >16 µg/mL
N/C(=N\N=C\c1cccc(F)c1)c1ccncc1 | INH resistant | MIC | 64 µg/mL
Cc1ccc(O)c(C(=O)NCc2cccc([N+](=O)[O-])c2)c1 | MY330/88 | MIC | 32 µg/mL
Cc1ccc(/C=N/N=C(\N)c2ccncc2)cc1 | INH resistant | MIC | 32 µg/mL
C(=C\c1ccccc1)/CCNc1ccccc1N1CCSCC1 | 103317 | MIC | >16 µg/mL
O=C(Nc1ccc(Br)cc1)c1ncccc1S | CNCTC MY330/88 | MIC | 32 µM
CCCCCCCc1ccc(NC(=O)c2ccc(Cl)cc2O)cc1 | MY330/88 | MIC | 8 µM
CCCOc1ccc(NC(=O)OCCN2CCCCCC2)cc1 | MY330/88 | MIC | 250 µM
COc1ccc(-n2nnc(SCc3ccc(C)cc3)n2)cc1 | CNCTC MY330/88 | MIC | 62.5 µM
CCCCCCOc1ccccc1NC(=O)OCCN1CCCCC1 | MY330/88 | MIC | 62.5 µM
CCn1cc(C(=O)OCC(=O)O[C@H]2[C@H](C)[C@H](O)[C@H](C)[C@@H](O)[C@@H](C)/C=C/C=C(/C)C(=O)Nc3c(/C=N/N4CCN(C)CC4)c(O)c4c5c(c(C)c(O)c4c3O)O[C@](C)(O/C=C/[C@H](OC)[C@H]2C)C5=O)c(=O)cc1N1CCN(C)CC1 |  | MIC | <0.2 µg/mL
CCn1c(S)c(N=NC(N)=O)c2ccccc21 | CNCTC D5/93 | MIC | 125 µM
CCCCCCc1ccc(NC(=O)c2cc(Cl)ccc2O)cc1 | MY330/88 | MIC | 16 µM
CN[C@@H]1[C@H](O[C@H]2[C@H](O[C@H]3[C@H](O)[C@@H](O)[C@H](N=C(N)N)[C@@H](O)[C@@H]3N=C(N)N)O[C@@H](C)[C@]2(O)C=O)O[C@@H](CO)[C@H](O)[C@H]1O | 100 strains | MIC50 | 2.53 µg/mL
N/C(=N\N=C\c1ccc([N+](=O)[O-])cc1)c1ccncc1 | INH resistant | MIC | 256 µg/mL
CCOc1ccccc1NC(=O)OCC[NH+]1CCCC1 | MY330/88 | MIC | 1000 µM
CCN1C(NNC(=O)c2cccnc2)=NS(=O)(=O)c2ccccc21 | ATCC49601 | MIC | >16 µg/mL
N/C(=N/N=C/c1ccc(Cl)cc1)c1ccccn1 |  | MIC | 32 µg/mL
CCCOc1ccccc1NC(=O)OCC[NH+]1CCCC1 | MY330/88 | MIC | 1000 µM
CCCCCc1ccc(NC(=O)c2cc(Br)cc(Br)c2O)cc1 | MY330/88 | MIC | 62.5 µM
CCCCCCOc1ccccc1NC(=O)OCC[N+]1(CCCC)CCCCC1 | MY330/88 | MIC | 62.5 µM
C/C=C(/C)C(=O)O[C@@H]1C=C(C)CC[C@H]2[C@H](C)C(=O)O[C@@H]2/C=C(\C)C1 |  | MIC | >128 µg/mL
O=C(Nc1ccc(Cl)cc1)c1ncccc1O | CNCTC MY330/88 | MIC | 32 µM
c1ccc(CSc2nnn(-c3ccccc3)n2)cc1 | CNCTC MY330/88 | MIC | 32 µM
CCCCCSc1ccnc(C(N)=S)c1 | 80/72 | MIC | 60 µM
CCCCCCCc1ccc(NC(=O)c2cc(Br)ccc2O)cc1 | MY330/88 | MIC | 8 µM

The last 7 rows once more:

smiles,strain or isolate,endpoint,value
CCCCCc1ccc(NC(=O)c2cc(Br)cc(Br)c2O)cc1,MY330/88,MIC,62.5 µM
CCCCCCOc1ccccc1NC(=O)OCC[N+]1(CCCC)CCCCC1,MY330/88,MIC,62.5 µM
C/C=C(/C)C(=O)O[C@@H]1C=C(C)CC[C@H]2[C@H](C)C(=O)O[C@@H]2/C=C(\C)C1,,MIC,>128 µg/mL
O=C(Nc1ccc(Cl)cc1)c1ncccc1O,CNCTC MY330/88,MIC,32 µM
c1ccc(CSc2nnn(-c3ccccc3)n2)cc1,CNCTC MY330/88,MIC,32 µM
CCCCCSc1ccnc(C(N)=S)c1,80/72,MIC,60 µM
CCCCCCCc1ccc(NC(=O)c2cc(Br)ccc2O)cc1,MY330/88,MIC,8 µM